Laboratory results taken from article PMC7551609 (Viruses, 2020).
Counter-ions that a name gives are not always drawn.

Legend:
Type in all cases: cell-based, Zika virus
[1] = test system: ZIKV Paraiba/2015; assay: Viral inhibition assay, post-infection treatment, Vero cells; settings: for SI (MTT): CC50 (MTT)/EC50, Paraiba/2015, Vero; for SI (XTT): CC50 (XTT)/EC50, Paraiba/2015, Vero
[2] = test system: ZIKV PRVABC59 strain; assay: Viral inhibition assay, post-treatment, new World strain, Vero cells; settings: for SI (MTT): CC50 (MTT)/EC50, PRVABC59, Vero; for SI (XTT): CC50 (XTT)/EC50, PRVABC59, Vero
[3] = test system: ZIKV MR-766 strain; assay: Viral inhibition assay, post-treatment, old World strain, Vero cells; settings: for SI (MTT): CC50 (MTT)/EC50, MR-766, Vero; for SI (XTT): CC50 (XTT)/EC50, MR-766, Vero
[4] = test system: ZIKV Paraiba/2015; assay: Viral inhibition assay, co-treatment, Vero cells; settings: for SI (MTT): CC50 (MTT)/EC50, Paraiba/2015, Vero; for SI (XTT): CC50 (XTT)/EC50, Paraiba/2015, Vero
[5] = test system: ZIKV Paraiba/2015; assay: Viral inhibition assay, post-treatment, human A549 cells; settings: for SI (MTT): CC50 (MTT)/EC50, Paraiba/2015, A549 cells; for SI (XTT): CC50 (XTT)/EC50, Paraiba/2015, A549 cells

Compound	SI (MTT) [1]	SI (XTT) [1]	SI (MTT) [2]	SI (XTT) [2]	SI (MTT) [3]	SI (XTT) [3]	SI (MTT) [4]	SI (XTT) [4]	SI (MTT) [5]	SI (XTT) [5]
2′,3′,5′-Triacetyl-6-azauridine [Azaribine]	146.29	>833.33	211.61	>1205.36	97.53	>555.56	91.51	>521.23	>73.53	>73.53
O=C(O)C1=CC(=C(c2ccc(O)c(C(=O)O)c2)c2ccc(O)c(C(=O)O)c2)C=CC1=O [ATA, Aurintricarboxylic acid]	>54.00	>54.00	>284.81	>284.81	>167.08	>167.08	>780.34	>780.34	>7.49	>7.49
CC[C@H](CC#N)OC(=O)N[C@@H](C)c1cccc(NC(=O)Nc2ccc(-c3cnco3)c(OC)c2)c1 [AVN-944]	278.16	>1377.55	717.37	>3552.63	826.06	>4090.91	34.16	>169.17	>1000.00	>1000.00
CCCCCC[C@H]1C(=O)O[C@H](C)[C@H](NC(=O)c2cccc(NC=O)c2O)C(=O)O[C@@H](C)[C@@H]1OC(=O)CC(C)C [Antimycin A]	25.64	>675.00	7.01	>184.43	1709.33	>45,000.00	14.65	>385.71	>29.24	>29.24
O=c1cnn([C@@H]2O[C@H](CO)[C@@H](O)[C@H]2O)c(=O)[nH]1 [Azauridine, 6-azauridine]	36.32	>314.69	106.71	>924.66	205.00	>1776.32	1.19	>10.36	>113.64	>113.64
Cc1c(-c2ccc(-c3ccccc3F)cc2)nc2ccc(F)cc2c1C(=O)O [Brequinar, Brequinar sodium salt hydrate]	157.42	>894.04	2971.25	>16,875.00	4754.00	>27,000.00	27.29	>154.99	>2500.00	>2500.00
COc1c(C)c2c(c(O)c1C/C=C(\C)CCC(=O)OCCN1CCOCC1)C(=O)OC2 [Mycophenolate mofetil]	47.24	>383.52	1385.83	>11,250.00	692.92	>5625.00	73.26	>594.71	>60.24	>60.24
COc1c(C)c2c(c(O)c1C/C=C(\C)CCC(=O)O)C(=O)OC2 [Mycophenolic acid]	64.65	>316.90	1251.82	>6136.36	1836.00	>9000.00	6.59	>32.33	>76.92	>76.92
NCC(=O)Nc1ccc(-n2nc(C(F)(F)F)cc2-c2ccc3c(ccc4ccccc43)c2)cc1 [OSU-03012]	0.76	15.77	3.80	78.87	7.89	163.58	3.61	–	>238.09	>238.09
COC1=CC(c2cc3ccccc3[nH]2)=N/C1=C\c1[nH]c(C)cc1C [Obatoclax, Obatoclax mesylate]	27.89	95.94	42.85	147.41	47.49	163.35	60.58	208.41	>78.13	>78.13
NC(=O)c1[nH]nc([C@@H]2O[C@H](CO)[C@@H](O)[C@H]2O)c1O [Pyrazofurin]	45.35	>226.51	284.84	>1421.06	304.04	>1516.85	6.93	>34.55	>151.52	>151.52
